The numbers were not newly measured in patent publication US20220213047A1, “CARBONIC ANHYDRASE INHIBITORS FOR TREATMENT OF NEISSERIA GONORRHOEAE INFECTION” (Purdue Research Foundation, priority 2021, published 2022), which cites them from elsewhere.

Usually Kd stands for the equilibrium constant for the complex coming apart.

Molecules are shown by their SMILES.

The series concerns the target hCAII (Homo sapiens, UniProt P00918). Particulars: read-out: Kd of tracer against hCAII; same tracer; cited from earlier work.

For the compound `COc1ccc2cc(C(=O)Nc3nnc(S(N)(=O)=O)s3)c(=O)oc2c1`, the Kd is 65 nM.
